Measurements from US12296017B2 (TAMBO, INC., priority 2017, dated 2025).

Assay: In vivo catch and release of TCO-rhodamine at implanted HMT in mice

Question: Which “fluorescence around the site of HMT implantation” value (5-10 minutes after 100 nmoles by tail vein, mouse with 2.5% HMT) does the source give for `CN(C)c1ccc2c(-c3ccc(C(=O)NCCNC(=O)OC4/C=C/CCCCC4)cc3C(=O)[O-])c3ccc(=[N+](C)C)cc-3oc2c1` (centres unmarked) [Rh-R-TCO] here?
Answer: large increase in fluorescence

Question: And the “decay of fluorescence signal (release)” value (after each dose)?
Answer: decreases within two hours to background levels
